Human monoclonal antibodies against the spike receptor-binding domain (heavy:light variable regions). IC50 against pseudoviruses bearing the spike of naturally observed variants; lower = stronger; >10 µg/ml means not reached at the top dose. No active / inactive call. The stated detection limit is 0.0005 µg/ml; values near or below 0.001 µg/ml lie at the floor of the assay.
B1: BD56-1316 (protein)
chain 1: EVQLLESGGGLVQPGGSLRLSCAASGFTFSTSAMSWVRQAPGKGLEWVSVIYVGGGITYYADSVRGRFTISRDDSKNTLYLQMNSLRAEDTAIYYCARRDYCDYWGQGTLVTVSS
chain 2: DIQMTQSPSTLSASVGDRVTITCRASQSISSWLAWYQQKPGKAPKLLIYKASSLESGVPSRFSGSGSGTEFTLTISSLQPDDFATYYCQQSNTYPYTFGQGTKLEIK
B2: BD56-1317 (protein)
chain 1: EVQLVESGGGLVQPGRSLTLSCAASGFTFDDYAMHWVRQAPGKGLEWVSGISWNSGTIGYADSVQGRFIISRDNAKNSLFLHMRSLRAEDTALYYCAKDIRGTMIDDTIYGMDVWGQGTTVTVSS
chain 2: QSALTQPASVSGSPGQSITISCTGTSSDVGNYNYVSWYQQHPGKAPKLMIYDVNKRPSGISNRFSGSKSGNTASLTISGLQAEDEADYYCSSYTITSIVIFGGGTKLTVL
B3: COV2-2064 (protein)
chain 1: QVQLAQSGAEVKKPGASVKVSCKAAGYTFTSYDINWVRQATGQGLEWMGWMNSNSGNAGYAQKFQGRVTMTRDTSTSTAYMELSSLTSDDTAVYYCARMRTGWPTHGRPDDFWGRGTLVTVSS
chain 2: QSVLTQPPSASGTPGQRVTISCSGSNSNIGSYTVNWYQQFPGTAPKLLIYDNNQRTSGVPDRFSGSKSGTSASLAISGLQSEDEANYYCLVWDDSLNGLVFGGGTKLTVL
B4: BD56-1318 (protein)
chain 1: EVQLVESGGGLVKPGGSLRLSCTASGFTFSTYSMNWVRQAPGKGLEWVSSISGSGDHIYYADSVKGRFTISRDNAKNSLYLQMNSLRAEDTAVFYCARDSEWGGDILTGFSHIFDYWGRGTLVTVSS
chain 2: DIQMTQSPSSLSASVGDRVTITCRASQIISSSLNWYQQKPGGAPKLLIYAFSLHSGVPSRFSGSGSGTDFTLTISSLQPEDFATYYCQQSYSSPPTFGGGTTVEIK
B5: BD56-1320 (protein)
chain 1: QVQLVESGGGVVQTGRSLRLSCAASGFIFRSFGMHWVRQAPGKGLEWVAVISDDESKKYYADSVKGRFTISRDNSKNTLYLQMNSLKPEDTAVYYCARPPREYYDVLIDYYRGVIELGMDVWGQGTTVTVSS
chain 2: QAVVTQEPSLTVSPGGTVTLTCGSNTGAVTSGHYPYWFQQKPGQAPRTLIYDTNNKHSWTPARFSGSLIGGKAALTLSGAQPEDEAYYYCLLSYSGAHVIFGGGTKVTVL
B6: BD56-1321 (protein)
chain 1: QVQLVQSGAEVKKPGASVKVSCKASGYTFTTYYIHWVRQAPGQGLEWMGIINPSGGGTRYAQKFQGRVTMTRDTSTSTGYMELSSLRSEDTAVYFCARELVAPAAGYMDVWGKGTTVTVSS
chain 2: SYVLTQPPSVSVAPGKTARITCGGNSIGSKSVHWYQQKPGQAPVLVVYDDSDRPSGIPERFSGSNSGNTATLTINRVEAGDEADYYCQVWDGSSDHFYVFGSGTKVTVL
B7: BD56-1322 (protein)
chain 1: EVQVEESGGGLVQPGRSLRLSCVASGFTFEDFAMHWVRQAPGKGLEWVSGITWNSGTIGYADSVKGRFIISRDNAKNSLYLQMNSLSPDDTALYFCAKDMGKDDYDVLAGFRDWGQGTLVTVSS
chain 2: QSVLTQPPSASGTPGQRVTISCSGSSSNIGSNTVNWYQQLPGAAPKLLIYSNNQRPSGVPDRFSGSKSGTSASLAISGLQSEDEAGYYCAAWDDSLYVFGTGTKVTVL
B8: BD56-1329 (protein)
chain 1: EAQLVESGGGLVQPGGSLRLTCSVSGFTFSDYSIHWVRQAPVKGLEYVSSISSDGGITYYADSVKGRFTISRDNSKNTLYLQMSSLRPEDTAVYYCVRPLIHLWTDVYDIWGQGTMVTVSS
chain 2: DIQMTQSPSSLSASVGDRVTITCRASQSIITYLSWYQQRPGKAPKLLIYATSTLQTGVPSRFSGSGSGTDFTLTISSLQPEDFATYYCQQSYTTPPNFGGGTKVEIK
B9: BD56-1341 (protein)
chain 1: QVQLVESGGGVVQPGRSLRLSCAASGFTFSSYGMHWVRQAPGKGLEWVAVIWHDGTKKDYADSVKGRFTISRDNSKNTLYLQTSSLRAEDTAVYYCARGHYGDEVGYYYFALDVWGQGTTVTVSS
chain 2: QSVLTQPPSVSGAPGQRVTITCTGTSSNIGAPYDVHWYQQLPGTVPKLLIYGDTNRPSGVPDRFSGSKSGTSASLAITGLQAEDEGDYYCQSYDSSLSGWVFGGGTKLTVL
B10: BD56-1393 (protein)
chain 1: QVQLVESGGGVVQPGRSLRLSCAASGFTFNNFAMHWVRQAPGKGLEWVAVISSDGSKKYYADSVKGRFTISRDISKNTLFLQMNSLRAEDTAVYYCAREPGTYGSGNYMDVWGKGTTVTVSS
chain 2: SYELTQPPSVSVSPGQTARITCSGDALPKQYAYWYQQKPGQAPVLLISKDSERPSGIPERFSGSTSGTTVTLTISGVQAEDEADYYCQSVDSSGTYVFGTGTKVTVL
B11: BD56-1399 (protein)
chain 1: QVHLVQSGAEVKKPGASVKVSCKASGYTFTNHYIHWVRQAPGQGLEWMGIINPSGGSTSYAQKFQGRVTMTTDTSTSTVYMELSSLRFDDTAVYYCARDSSYIPQNHYYGLDVWGQGTTVTVSS
chain 2: DIQMTQSPSSLSASVGDRVTITCRASQSISSYLNWYQQKPGKAPKLLIYAASSLQSGVPSRFSGGGSGTDFGLTISTLQPEDFATYYCQQSYITPPTFGQGTKVEIK
B12: BD56-1400 (protein)
chain 1: QVQLQESGPGLVKPSQTLSLTCTVSGGSISSTSYYWSWIRQPAGQGLEWIGHISTSGTTNYKSSLKSRVTISVDTSKNQFSLKLSSVTAADTAVYYCARGLGWPQPRIDNWGQGTLVTVSS
chain 2: DIQMTQSPSSLSASVGDRVTITCRASQSISNYLNWYQQKPGKAPKLLIYGASSLQSGVPLRFSGSGSGTDFTLTISSLRPEDFATYYCQQSYSTFTFGPGTKVDIK

What was measured:
Test in all cases: pseudovirus neutralization IC50; higher = weaker neutralization
[1] = target: SARS-CoV-2 Omicron BA.1 spike pseudovirus
Description: (§1)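 Single-round VSV luciferase pseudovirus mixed with antibody dilutions for 1 h and put on Huh-7 cells for about a day; IC50 from the dose curve.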

[2] = target: SARS-CoV-2 Omicron BA.2 spike pseudovirus
Description: as §1

[3] = target: SARS-CoV-2 Omicron BA.2.75 spike pseudovirus
Description: as §1

[4] = target: SARS-CoV-2 Omicron BA.5 spike pseudovirus
Description: as §1

[5] = target: SARS-CoV-2 Omicron BQ.1.1 spike pseudovirus
Description: as §1

[6] = target: SARS-CoV-2 Omicron XBB spike pseudovirus
Description: as §1

[7] = target: SARS-CoV-2 early D614G spike pseudovirus
Description: as §1

| Binder | pseudovirus neutralization IC50 [1] [µg/mL] | pseudovirus neutralization IC50 [2] [µg/mL] | pseudovirus neutralization IC50 [3] [µg/mL] | pseudovirus neutralization IC50 [4] [µg/mL] | pseudovirus neutralization IC50 [5] [µg/mL] | pseudovirus neutralization IC50 [6] [µg/mL] | pseudovirus neutralization IC50 [7] [µg/mL] |
| --- | --- | --- | --- | --- | --- | --- | --- |
| B1 | 0.0907 | 0.0314 | 0.0215 | > 10 | > 10 | 1.6 | 0.0839 |
| B2 | 0.0201 | 0.0392 | 0.0227 | > 10 | > 10 | > 10 | 0.0194 |
| B3 | > 10 | > 10 | > 10 | > 10 | > 10 | > 10 | 0.238 |
| B4 | > 10 | > 10 | > 10 | > 10 | > 10 | > 10 | 6.53 |
| B5 | 1.27 | 1.5 | > 10 | 1.38 | > 10 | > 10 | 0.314 |
| B6 | 2.46 | 2.66 | 2.55 | 4.65 | 3.05 | 2.24 | 2.32 |
| B7 | 0.0444 | 0.0479 | 0.0641 | > 10 | > 10 | 3.52 | 0.0223 |
| B8 | 3.23 | 3.2 | 2.61 | 4.65 | 5.89 | 3.98 | 0.838 |
| B9 | 1.17 | 0.227 | 0.291 | 0.272 | 0.459 | 0.638 | 0.253 |
| B10 | > 10 | > 10 | > 10 | > 10 | > 10 | > 10 | > 10 |
| B11 | > 10 | > 10 | > 10 | > 10 | > 10 | > 10 | > 10 |
| B12 | > 10 | > 10 | > 10 | > 10 | > 10 | > 10 | > 10 |

Source: the supplement of paper PMC9931576
